Test system: Mycobacterium tuberculosis
Assay: Inhibition of Mycobacterium tuberculosis LipY assessed as residual enzyme activity pre-incubated for 30 mins with enzyme before substrate addition by pH-stat technique

CCCCCCCCCCCCCCCCOP1(=O)CCCC(C(=O)OC)=C(C)O1 (stereo unspecified)
Activity: 6%

— ChEMBL document CHEMBL2177030
